Results of unrelated studies side by side (data: NIAID ChemDB).

All rows: toxicity to cultured cells; cells: HepG2; endpoint: CC50

CCn is the concentration with n% toxicity to the cells. Neighbouring rows are from separate reports. a–b is a range or a potency band.

CC(C)CCc1ccc2c(NCCCNCc3ccco3)ccnc2c1 ; method: fluorescence ; result: 11.24 µM
Cc1cc(NC(=O)c2c(C)c(C(=O)C(=O)NC3CCC(O)CC3)n(C)c2-c2nccs2)ccc1F ; method: MTT ; result: >30 µM
COc1cccc(CNCCCNc2ccnc3cc(Oc4ccc(C(C)(C)C)cc4)ccc23)c1O ; method: fluorescence ; result: 1.5 µM
Cc1c(C(=O)Nc2cccc(S(N)(=O)=O)c2)c(C)n(C)c1C(=O)C(=O)NC(C)(C)C ; method: MTT ; result: >30 µM
CCOC(=O)CCCCCOc1cccc(CN(C(=O)c2ccc(-c3cc(F)cc(OC)c3)cc2)C(C)C)c1 ; result: >20 µM
CC(=O)N1CC[C@@H](NC(=O)C(=O)c2c(C)c(C(=O)Nc3ccc(F)c(C)c3)c(C)n2C)C[C@H]1C ; method: MTT ; result: >30 µM
COc1ccc(F)cc1CNCCCNc1ccnc2cc(-c3ccccc3)ccc12 ; method: fluorescence ; result: 2.96 µM
CCOC(OCC)C1=NCCc2cc(OC)c(OC)cc21 ; result: >20 µM
Cc1c(C(=O)Nc2ccc(N3CCOCC3)nc2)c(C)n(C)c1C(=O)C(=O)NC(C)(C)C ; method: MTT ; result: >30 µM
CCOC(=O)CCCCCOc1cccc(CN(C(=O)c2ccc(-c3cccc(N(C)C)c3)cc2)C(C)C)c1 ; result: >20 µM
Cc1cc(NC(=O)c2c(C)c(C(=O)C(=O)NCC(C)(C)O)n(C)c2C2CCCCC2)ccc1F ; method: MTT ; result: >30 µM
CNC(=O)[C@@H]1CC[C@@H](n2c(NC(C)C)nc3c(c2=O)C[C@@H](C)N(C(=O)c2ccc(Br)c(C(F)(F)F)c2)C3)C1 ; method: luminescence ; result: 15.7 µM
CCOC(=O)CCCCCOc1cccc(CN(C(=O)c2ccc(-c3cccnc3)cc2)C(C)C)c1 ; result: >20 µM
CC[C@H](C)[C@@H]1NC(=O)[C@@H](CC(C)C)NC(=O)[C@H](CC(C)C)NC(=O)[C@H](Cc2c[nH]c3ccccc23)NC(=O)CNC(=O)[C@H](CC(N)=O)NC1=O ; method: MTT ; result: >30 µM
CC(C)N(Cc1cccc(OCCCCCC(=O)OC(=O)O)c1)C(=O)c1ccc(-c2cccc3ccccc23)cc1 ; result: >20 µM
CNC(=O)c1c(Cl)c(-n2c([C@@H](O)C(C)C)nc3c(c2=O)C[C@@H](C)N(C(=O)c2ccc(Br)c(C(F)(F)F)c2)C3)nn1C ; method: luminescence ; result: >50 µM
Cc1cc(NC(=O)c2c(C)c(C(=O)C(=O)N[C@@H]3CCCN(C(=O)Nc4ccc(F)c(F)c4)C3)n(C)c2C)ccc1F ; method: MTT ; result: 5–30 µM
CC(C)Nc1nc2c(c(=O)n1C1CCC(n3cccn3)CC1)C[C@@H](C)N(C(=O)c1ccc(Cl)c(C(F)(F)F)c1)C2 ; method: luminescence ; result: >3.12 µM
COc1ccc(F)cc1CNCCCNc1ccnc2cc(Oc3ccc(C(C)(C)C)cc3)ccc12 ; method: fluorescence ; result: 7.2 µM
Cc1c(C(=O)Nc2ccc(F)c(C#N)c2)c(C)n(C)c1C(=O)C(=O)Nc1ccc(B(O)O)cc1 ; method: MTT ; result: >30 µM
CC(C)C[C@@H]1NC(=O)[C@H](Cc2c[nH]c3ccccc23)NC(=O)[C@@H](CCCCN)NC(=O)[C@H](CC(C)C)NC(=O)[C@H](C(C)C)NC(=O)[C@@H](CC(C)C)NC1=O ; method: MTT ; result: >30 µM
CCOC(=O)CCCCCOc1cccc(CN(C(=O)c2ccc(-c3ccc4c(c3)OCCO4)cc2)C(C)C)c1 ; result: >20 µM
N#Cc1ccc(Cc2ccc3c(NCCCNCc4ccco4)ccnc3c2)cc1 ; method: fluorescence ; result: 7.91 µM
Cc1cc(NC(=O)c2c(C)c(C(=O)C(=O)NCC(C)(C)O)n(C)c2C2CCCC2)ccc1F ; method: MTT ; result: >30 µM
CC(C)C[C@@H]1NC(=O)[C@H](Cc2c[nH]c3ccccc23)NC(=O)[C@@H](C(C)(C)C)NC(=O)[C@H](CCCCN)NC(=O)[C@H](C(C)C)NC(=O)[C@@H](CC(C)C)NC1=O ; method: MTT ; result: >30 µM
CCOC(=O)CCCCCOc1cccc(CN(C(=O)c2ccc(-c3cccc([N+](=O)[O-])c3)cc2)C(C)C)c1 ; result: >20 µM
CCC(C)[C@@H]1NC(=O)[C@@H](C(C)CC)NC(=O)[C@H](CC(C)C)NC(=O)[C@H](Cc2c[nH]c3ccccc23)NC(=O)CNC(=O)[C@H](CC(N)=O)NC1=O ; method: MTT ; result: >30 µM
CC(C)N(Cc1cccc(OCCCCCC(=O)OC(=O)O)c1)C(=O)c1ccc(-c2cccc(OC(F)(F)F)c2)cc1 ; result: >20 µM
CNC(=O)CCCn1c(NC(C)C)nc2c(c1=O)C[C@@H](C)N(C(=O)c1ccc(Br)c(C(F)(F)F)c1)C2 ; method: luminescence ; result: 30 µM
CC(C)C[C@@H]1NC(=O)[C@H](Cc2c[nH]c3ccccc23)NC(=O)[C@@H](CC(C)C)NC(=O)[C@H](CCCCN)NC(=O)[C@H](C(C)C)NC(=O)[C@@H](CC(C)C)NC1=O ; method: MTT ; result: >30 µM

A second listing of 4 rows from above:

compound | method | result
Cc1cc(NC(=O)c2c(C)c(C(=O)C(=O)NCC(C)(C)O)n(C)c2C2CCCCC2)ccc1F | MTT | >30 µM
Cc1cc(NC(=O)c2c(C)c(C(=O)C(=O)NC3CCC(O)CC3)n(C)c2-c2nccs2)ccc1F | MTT | >30 µM
CNC(=O)CCCn1c(NC(C)C)nc2c(c1=O)C[C@@H](C)N(C(=O)c1ccc(Br)c(C(F)(F)F)c1)C2 | luminescence | 30 µM
COc1cccc(CNCCCNc2ccnc3cc(Oc4ccc(C(C)(C)C)cc4)ccc23)c1O | fluorescence | 1.5 µM